The record followed here is publication PMC3877901, “Screening Mangrove Endophytic Fungi for Antimalarial Natural Products” (Marine Drugs, 2013).

Some results are limits rather than exact numbers.

The test concerns Plasmodium falciparum (3D7, a drug sensitive strain). Kind of test: Malaria assay: anti-malarial activity against Plasmodium falciparum (3D7). Particulars: read-out: IC50 (nM) 3D7. It counts as cell-based.

As usually defined, the IC50 is the concentration that gives 50% inhibition. As to `CC1=CC(=O)OCC23CCC(C)=CC2OC2CC(OC(=O)C=CC=CC(C(C)O)OCC1)C3(C)C21CO1` (stereo not shown), the IC50 is less than 20 nM.
